From PMC12031609, “Ferritin and Encapsulin Nanoparticles as Effective Vaccine Delivery Systems: Boosting the Immunogenicity of the African Swine Fever Virus C129R Protein” (2025)

Key:
[1] = biological target: encapsulin nanoparticles (SpyCatcher fused to the C-terminus of the encapsulin protomer)
[2] = biological target: ferritin nanoparticles (SpyCatcher fused to the N-terminus of the ferritin subunit)

For “SpyTag fused to the N-terminus of the African swine fever virus C129R protein”, the conjugation efficiency [1] was 87.8% and the conjugation efficiency [2] was 100%.
